Measured values from several laboratories, pooled; numbers as filed in NIAID ChemDB.

All rows: host cell toxicity; cells: H9; measure: CC50

Conditions beyond the fields shown may differ between rows. An empty or dashed field is not shown. a–b is a range or a potency band. CCn: concentration that lowers growth or viability of the cells by n%.

structure	method	value
COc1c(O)c(Cl)c2c(c1OC)-c1c(c(Cl)c(O)c(OC)c1OC)C[C@H](C)[C@H](C)C2	-	28.5 µM
Oc1ccc(CC2NCCc3cc(O)c(O)cc32)cc1O	-	19.69 µg/mL
Cc1cc2c(C(C)C)c(O)c(O)c(C=O)c2c(O)c1-c1c(C)cc2c(C(C)C)c(O)c(O)c(C=O)c2c1O	-	>25 µM
CCCCCC1NCCc2cc(O)c(O)cc21	-	21.6 µg/mL
COC1=C(C)C(O)=C(C(=O)/C=C/c2ccccc2)C(=O)C1(C)C	cell count	2.29 µg/mL
O=C(N[C@H]1CCc2cc(O)c(O)c(O)c2-c2ccc(O)c(=O)cc21)C(F)(F)F	-	23 µM
Cc1cn([C@H]2C[C@H](F)[C@@H](CO)O2)c(=O)[nH]c1=O	-	>0.016 µM
O=c1c(O)c(-c2ccc(O)c(O)c2)oc2cc(O)cc(O)c12	-	<4 µg/mL
CC(C)=CCC/C(C)=C/CC[C@@]1(C)C=Cc2c(cc(C)c(C(=O)O)c2O)O1	-	21.1 µg/mL
O=Cc1cc(OCc2ccccc2)c(OCc2ccccc2)c(OCc2ccccc2)c1-c1c(C=O)cc(OCc2ccccc2)c(OCc2ccccc2)c1OCc1ccccc1	-	70 µM
COc1cc2ccnc(Cc3ccc4c(c3)OCO4)c2cc1OC	-	21.6 µg/mL
C[C@]12CCC3C(CC[C@@]45O[C@@H]4C(=O)C(S(C)(=O)=O)C[C@]35C)C1CC[C@@H]2O	-	5.46 µM
COc1cc2c(c(OC)c1OC)-c1ccc(N(C)C)c(=O)cc1[C@@H](NC(C)=O)CC2	-	0.085 µM
COc1c(O)c(Br)c2c(c1OC)-c1c(c(Br)c(O)c(OC)c1OC)C[C@H](C)[C@H](C)C2	-	24 µM
O=c1ccc2cc3ccoc3cc2o1	-	19.1 µg/mL
Nc1nc(N)c2ncn(CCOCP(=O)(O)O)c2n1	-	17 µM
COc1cccc2sc(-c3ccccc3)cc(=O)c12	-	7 µg/mL
Oc1ccc([C@H]2Oc3cc(O)cc(O)c3C[C@H]2O)cc1	-	100 µg/mL
Cc1cn([C@H]2C[C@H](N=[N+]=[N-])[C@@H](CO)O2)c(=O)[nH]c1=O	-	500 µg/mL
CC(C)=CCOc1c2occc2cc2ccc(=O)oc12	-	>100 µg/mL
COc1cc2c(c3ccccc3n2C)c2c(NCCN(C)C)nccc12	-	0.23 µg/mL
Nc1cccc2c(=O)cc(-c3ccccc3)sc12	-	15 µg/mL
CC1(C)O[C@@H]1COc1c2occc2cc2ccc(=O)oc12	-	19.8 µg/mL
CC1(C)Oc2ccc3ccc(=O)oc3c2[C@@H](OC(=O)C23CCC(C)(C(=O)O2)C3(C)C)[C@H]1OC(=O)C12CCC(C)(C(=O)O1)C2(C)C	-	35 µM
COc1cc2c(cc1OCc1ccccc1)C(Cc1ccc(Cl)cc1)N(Cc1ccccc1)CC2	cell count	11.9 µg/mL
[N-]=[N+]=N[C@H]1C[C@H](n2cc(Br)c(=O)[nH]c2=O)O[C@@H]1CO	-	590 µM
Nc1ccn([C@H]2CC[C@@H](CO)O2)c(=O)n1	-	>1 µg/mL
CC(=O)OC[C@]12[C@H](OC(C)=O)[C@H](OC(C)=O)[C@@H]3[C@@H](OC(C)=O)[C@@]14O[C@@]3(C)COC(=O)c1cccnc1CCC(C)(O)C(=O)O[C@@H]([C@H](OC(=O)c1ccoc1)[C@@H]2OC(C)=O)C4(C)O	-	>100 µg/mL
Cc1c(O)c(C=O)c(O)c2c1O[C@H](c1ccccc1)CC2=O	cell count	104 µg/mL
CC(C)(O)CCC(=O)[C@](C)(O)C1[C@H](O)C(=O)[C@@]2(C)[C@@H]3CC=C4[C@@H](C[C@H](O)[C@@H](O)C4(C)C)[C@]3(C)C(=O)C[C@]12C	-	38 µg/mL
Cc1cn([C@H]2C[C@H](N=[N+]=[N-])[C@@H](CO)O2)c(=O)[nH]c1=O	-	1875 µM
COc1cc2c(c3cc(O)ccc3n2C)c2c(Cl)nccc12	-	5 µg/mL
CC(C)(C)OC(=O)NCCC(=O)Nc1cccc(C(c2c(O)c3c(oc2=O)CCCCCC3)C2CC2)c1	-	>100 µM
COc1cc(/C=C/C(=O)Oc2ccc(/C=C/C(=O)NCCc3ccc(O)cc3)cc2OC)ccc1O	-	>25 µg/mL
COc1cc2c(c3ccccc3n2C)c2c(NCCCO)nccc12	-	0.15 µg/mL
Nc1ccn([C@H]2CC[C@@H](CO)O2)c(=O)n1	-	>100 µM
CCC(C)C(=O)O[C@@H]1c2c(ccc3ccc(=O)oc23)OC(C)(C)[C@@H]1OC(=O)C(C)CC	-	47–233 µM
CC1(C)S[C@H]([C@H](NC(=O)Cc2ccccc2)C(=O)NCc2ccccc2)N[C@H]1C(=O)NCCNC(=O)[C@@H]1N[C@@H]([C@H](NC(=O)Cc2ccccc2)C(=O)NCc2ccccc2)SC1(C)C	-	>110 µM
COC(=O)[C@H]1[C@@H]2C[C@@H](O[C@@H]3O[C@H](C)[C@@H](O)[C@H](N)[C@@H]3O)/C=C/C=C/C=C/C=C/C=C/C=C/C=C/[C@H](C)[C@@H](O)[C@H](C)[C@H](C)OC(=O)C[C@H](O)C[C@H](O)[C@@H](O)CC[C@H](O)C[C@H](O)C[C@](O)(C[C@@H]1O)O2	-	75 µg/mL
O=c1c(O[C@@H]2O[C@H](CO)[C@H](O)[C@H](O)[C@H]2O[C@@H]2OC[C@@H](O)[C@H](O)[C@H]2O)c(-c2ccc(O)c(O)c2)oc2cc(O)cc(O)c12	cell count	>100 µg/mL
COc1cc(/C=C/C(=O)OCCCc2ccc(O[C@@H](COC(=O)/C=C/c3ccc(O)c(OC)c3)[C@@H](O)c3ccc(O)c(OC)c3)c(OC)c2)ccc1O	-	17.86 µg/mL
O=C(/C=C/c1ccc(O)c2c1[C@H](C(=O)O)[C@@H](c1ccc(O)c(O)c1)O2)O[C@H](Cc1ccc(O)c(O)c1)C(=O)O	-	>300 µM
Cc1c(C)c2ccc3c(c2[nH]c1=O)[C@@H](OC(=O)C12CCC(C)(C(=O)O1)C2(C)C)[C@@H](OC(=O)C12CCC(C)(C(=O)O1)C2(C)C)C(C)(C)O3	-	42 µM
Nc1nc(=O)n([C@H]2CO[C@@H](CO)S2)cc1F	-	>500 µM
COc1cc2c(c3cnccc13)c1ccccc1n2C	-	2.7 µg/mL
CC(C)=CCC/C(C)=C/C[N@@+]12CCc3cc(O)c(O)cc3[C@H]1Cc1ccc(O)c(O)c1C2	-	>25 µg/mL
COc1ccc(-c2cc(=O)c3c(O)cc(O[C@@H]4O[C@H](CO)[C@H](O)[C@H](O)[C@H]4O)cc3o2)cc1	-	37 µg/mL
COc1c(C)c(O)c(C=O)c2c1C(=O)C[C@@H](c1ccccc1)O2	cell count	108 µg/mL
O=C(O[C@@H]1Cc2c(cc(O)c(Cc3c(O)cc(O)c4c3O[C@H](c3cc(O)c(O)c(O)c3)[C@H](OC(=O)c3cc(O)c(O)c(O)c3)C4)c2O)O[C@@H]1c1cc(O)c(O)c(O)c1)c1cc(O)c(O)c(O)c1	-	40 µg/mL
CC1(C)Oc2ccc3ccc(=O)oc3c2[C@@H](OC(=O)C23CCC(C)(C(=O)O2)C3(C)C)[C@H]1OC(=O)C12CCC(C)(C(=O)O1)C2(C)C	cell count	>16.1 µM
CC1(C)Oc2ccc3ccc(=O)oc3c2C(OC(=O)c2cccc(Cl)c2)C1OCc1ccccc1	-	8–41 µM
COc1cc2c(cc1OC)C(Cc1ccc(O)cc1)N(C)CC2	cell count	1.77 µg/mL
COC(=O)C[C@@H]1C(=O)CC[C@H](C)C(=O)O[C@@H]2[C@@H]3[C@@H](OC(C)=O)[C@@]45O[C@@]3(C)COC(=O)c3cnccc3[C@@H](C)[C@](C)(O)C(=O)O[C@@H]([C@H](OC(C)=O)[C@H](OC(C)=O)[C@@]4(COC1=O)[C@@H]2OC(C)=O)C5(C)O	-	>100 µg/mL
COc1cc2c(cc1O)[C@@H](Cc1ccc(O)cc1)N(C)CC2	cell count	1.45 µg/mL
CCc1cc(NCc2nc3c(Cl)ccc(Cl)c3o2)c(=O)[nH]c1C	-	>60 µM
CCCC1=[N+](Cc2ccccc2)CCc2cc(OCc3ccccc3)c(OCc3ccccc3)cc21	-	0.197 µg/mL
Cc1cn([C@H]2C[C@H](N=[N+]=[N-])[C@@H](CO)O2)c(=O)[nH]c1=O	-	500 µg/mL
COc1cc(/C=C/C(=O)N[C@H]2CCc3cc(OC)c(OC)c(OC)c3-c3ccc(OC)c(=O)cc32)cc(OC)c1OC	-	0.0055 µM
Cc1cn([C@H]2C[C@H](N=[N+]=[N-])[C@@H](CO)O2)c(=O)[nH]c1=O	-	500 µg/mL
O=C(O)P(=O)(O)O	-	>680 µM
CC1(C)Oc2ccc3ccc(=O)oc3c2[C@@H](OC(=O)C23CCC(C)(C(=O)O2)C3(C)C)[C@H]1OC(=O)C12CCC(C)(C(=O)O1)C2(C)C	-	54.7 µM
CC(C)=CCC/C(C)=C/CN1CCc2cc(O)c(O)cc2[C@H]1C	MTT	20.23 µg/mL
CC1(C)Oc2ccc3ccc(=O)oc3c2[C@@H](OC(=O)c2cccc(Cl)c2)[C@@H]1OC1CCCCO1	-	40–200 µM
Oc1cc(O)c2c(c1)O[C@H](c1cc(O)c(O)c(O)c1)[C@H](O)[C@H]2c1c(O)cc(O)c2c1O[C@H](c1cc(O)c(O)c(O)c1)[C@H](O)C2	-	18 µg/mL
OCc1cc(OCc2ccccc2)c(OCc2ccccc2)c(O)c1-c1c(CO)cc(OCc2ccccc2)c(OCc2ccccc2)c1O	-	13 µM
CC(C)(O)/C=C/C(=O)[C@](C)(O)C1[C@H](O)C(=O)[C@@]2(C)[C@@H]3CC=C4[C@@H](C[C@H](O)[C@@H](O)C4(C)C)[C@]3(C)C(=O)C[C@]12C	-	5.1 µg/mL
CC1=C2OCC(C)c3c(O)cc(C)c(c32)C(=O)C1=O	-	>25 µg/mL
COc1cc(-c2cc(=O)c3c(O)c(OC)c(OC)cc3o2)c(O)cc1O	-	<100 µg/mL
CC1NCCc2cc(O)c(O)cc21	-	>25 µg/mL
Nc1nc(=O)n([C@@H]2CO[C@H](CO)S2)cc1F	-	>500 µM
C[C@]12CCC3C(CC[C@@]45O[C@@H]4C(=O)C(C(N)=O)C[C@]35C)C1CC[C@@H]2O	-	7.8 µM
c1cc(CN2CCCNCCNCCCNCC2)ccc1CN1CCCNCCNCCCNCC1	-	>10 µM
CC1=C(O)C2=C(O[C@H](c3ccccc3)CC2=O)C(C)(C)C1=O	cell count	1.89 µg/mL
CC(C)(S)[C@@H](N)C(=O)O	-	>500 µg/mL
Cc1cn([C@H]2C[C@H](N=[N+]=[N-])[C@@H](CO)O2)c(=O)[nH]c1=O	-	1871 µM
CC1NCCc2cc(O)c(O)cc21	MTT	25 µg/mL
CC1(C)CC[C@]2(C(=O)O)CC[C@]3(C(=O)/C=C/c4ccc(O)c(O)c4)C(=CCC4[C@@]5(C)CC[C@H](O)C(C)(C)C5CC[C@]43C)[C@@H]2C1	-	19.87 µg/mL
Cc1cn([C@H]2C[C@H](N=[N+]=[N-])[C@@H](CO)O2)c(=O)[nH]c1=O	-	4 µM
Nc1ncnc2c1ncn2CCOCP(=O)(O)O	-	51 µM
COc1ccc(Cc2cc3cc(OC)c(OC)cc3c[nH+]2)cc1OC	-	10.1 µg/mL
O=C(O[C@@H]1Cc2c(O)cc(O)cc2O[C@@H]1c1cc(O)c(O)cc1-c1c([C@H]2Oc3cc(O)cc(O)c3C[C@H]2OC(=O)c2cc(O)c(O)c(O)c2)cc(O)c(O)c1O)c1cc(O)c(O)c(O)c1	-	50 µg/mL
CC(C)(O)[C@H](O)COc1c2occc2cc2ccc(=O)oc12	-	>100 µg/mL
Oc1ccc(C[C@@H]2NCCc3cc(O)c(O)cc32)cc1	cell count	20 µg/mL
CC(C)=CCC/C(C)=C/C[N@@+]12CCc3cc(O)c(O)cc3[C@H]1Cc1cc(O)c(O)cc1C2	-	>25 µg/mL
COc1cc(C(=O)N[C@H]2CCc3cc(OC)c(OC)c(OC)c3-c3ccc(C(=O)c4cc(OC)c(OC)c(OC)c4)c(=O)cc32)cc(OC)c1OC	-	1.4 µM
CC(C)(O)C(O)COc1c2ccoc2cc2oc(=O)ccc12	-	21.1 µg/mL
CC1c2cc(O)c(O)cc2CC[N+]1(C)C	-	>25 µg/mL

For reference, 10 entries again:

structure,method,value
CC1(C)CC[C@]2(C(=O)O)CC[C@]3(C(=O)/C=C/c4ccc(O)c(O)c4)C(=CCC4[C@@]5(C)CC[C@H](O)C(C)(C)C5CC[C@]43C)[C@@H]2C1,-,19.87 µg/mL
COc1ccc(-c2cc(=O)c3c(O)cc(O[C@@H]4O[C@H](CO)[C@H](O)[C@H](O)[C@H]4O)cc3o2)cc1,-,37 µg/mL
Oc1ccc(C[C@@H]2NCCc3cc(O)c(O)cc32)cc1,cell count,20 µg/mL
c1cc(CN2CCCNCCNCCCNCC2)ccc1CN1CCCNCCNCCCNCC1,-,>10 µM
CC1c2cc(O)c(O)cc2CC[N+]1(C)C,-,>25 µg/mL
COc1cc2c(cc1OC)C(Cc1ccc(O)cc1)N(C)CC2,cell count,1.77 µg/mL
CC1(C)S[C@H]([C@H](NC(=O)Cc2ccccc2)C(=O)NCc2ccccc2)N[C@H]1C(=O)NCCNC(=O)[C@@H]1N[C@@H]([C@H](NC(=O)Cc2ccccc2)C(=O)NCc2ccccc2)SC1(C)C,-,>110 µM
Cc1c(C)c2ccc3c(c2[nH]c1=O)[C@@H](OC(=O)C12CCC(C)(C(=O)O1)C2(C)C)[C@@H](OC(=O)C12CCC(C)(C(=O)O1)C2(C)C)C(C)(C)O3,-,42 µM
C[C@]12CCC3C(CC[C@@]45O[C@@H]4C(=O)C(S(C)(=O)=O)C[C@]35C)C1CC[C@@H]2O,-,5.46 µM
CCc1cc(NCc2nc3c(Cl)ccc(Cl)c3o2)c(=O)[nH]c1C,-,>60 µM